PubChem BioAssay AID504761 – Drosophila RNAi Screening Center – 2011

Screen: 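Fly genes whose silencing reduces dengue virus type 2 infection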 (primary screen)
System: D.Mel-2 cells from Drosophila
Knock-down reagent: long dsRNA against Drosophila genes
Treatment: infection with dengue virus type 2; dose and infection time not stated
Measured: 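Cells stained for dengue envelope protein and imaged; percent of infected cells per well on duplicate plates, ranked by infection, with stained nuclei counted for cell number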
Reading the numbers: infection score: higher = more virus-infected cells; cell count: higher = more cells in the well
Hit rule: 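Very low infection ranking in both replicate wells (chance probability at most 0.065), then a retest showing infection dropped 1.5-fold or more at p below 0.05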
Calls: active = confirmed: knock-down lowers infection; inactive = not picked or not confirmed
The screen tested about 22,000 reagents; this is a random part of those with a known target gene and a result. In the full data, 116 (0.52%) are marked active. 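Calls depend on retest data that are not deposited; infection was ranked per plate without normalising between plates; the unit of the infection score is not given.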 Raw values vary from plate to plate and are shown uncorrected. The record does not give: the amount of reagent, the time to read-out.

| Target gene | DRSC id | infection score, replicate 1 | infection score, replicate 2 | cell count, replicate 1 | cell count, replicate 2 | activity call |
| --- | --- | --- | --- | --- | --- | --- |
| Hdc | DRSC07439 | 12.4 | 10.9 | 6393 | 6363 | inactive |
| Hdc | DRSC25907 | 3.46 | 7.52 | 6243 | 6515 | inactive |
| CG31693 | DRSC03674 | 3.52 | 5 | 5883 | 5998 | inactive |
| CG8010 | DRSC20072 | 12.6 | 2.32 | 6366 | 7082 | inactive |
| CG8010 | DRSC26277 | 4.16 | 4.93 | 5914 | 6148 | inactive |
| CG13838 | DRSC14688 | 5.25 | 10.7 | 1314 | 6798 | inactive |
| CG13838 | DRSC29055 | 4.42 | 9.67 | 1130 | 6238 | inactive |
| Twdlalpha | DRSC19914 | 21.9 | 13.7 | 4957 | 5617 | inactive |
| Twdlalpha | DRSC28661 | 18.2 | 12.8 | 5718 | 3864 | inactive |
| Mdh2 (retired record) | DRSC16361 | 5.33 | 3.61 | 6563 | 7058 | inactive |
| CG32313 | DRSC21450 | 3.52 | 1.52 | 6363 | 6780 | inactive |
| deltaCOP | DRSC18760 | 3.39 | 9.33 | 3093 | 1383 | inactive |
| deltaCOP | DRSC25961 | 2.85 | 2.11 | 2246 | 2888 | inactive |
| CG31462 (retired record) | DRSC14359 | 4.83 | 3.2 | 6874 | 6568 | inactive |
| Cad99C | DRSC15050 | 2.46 | 1.45 | 5964 | 6638 | inactive |
| Cad99C | DRSC16317 | 2.06 | 5.62 | 6300 | 6619 | inactive |
| Mlh1 | DRSC07473 | 3.36 | 11.4 | 6102 | 6417 | inactive |
| Archease | DRSC16025 | 6.96 | 1.52 | 6622 | 6137 | inactive |
| PlexA | DRSC17220 | 6.63 | 3.51 | 5939 | 6014 | inactive |
| nur | DRSC01342 | 2.5 | 3.16 | 5589 | 4493 | inactive |
| nur | DRSC29629 | 5.38 | 15.2 | 929 | 5729 | inactive |
| CG11911 | DRSC00331 | 8.93 | 3.96 | 5837 | 6614 | inactive |
| CG11911 | DRSC27293 | 5.99 | 5.06 | 1052 | 5984 | inactive |
| Nubp1 | DRSC02639 | 4.92 | 4.89 | 6113 | 6280 | inactive |
| porin | DRSC03594 | 27.2 | 8.25 | 5236 | 5979 | inactive |
| porin | DRSC27826 | 9.07 | 27.2 | 6657 | 3191 | inactive |
| Pcl | DRSC07503 | 19.2 | 10.6 | 5396 | 2521 | inactive |
| Pcl | DRSC24868 | 11.9 | 4 | 6072 | 6028 | inactive |
| beag | DRSC15296 | 9.16 | 12.5 | 5161 | 5748 | inactive |
| CG15771 | DRSC18077 | 1.03 | 0.25 | 6316 | 7097 | inactive |
| VhaAC39-2 | DRSC15609 | 8.6 | 6.37 | 6012 | 6902 | inactive |
| CG31952 | DRSC00428 | 6.13 | 11.6 | 6684 | 6693 | inactive |
| CG31952 | DRSC21997 | 3.13 | 1.54 | 6927 | 7034 | inactive |
| CG31952 | DRSC26442 | 1.57 | 4.29 | 6558 | 6458 | inactive |
| lncRNA:CR32368 | DRSC08899 | 3.4 | 5.93 | 5407 | 1637 | inactive |
| lncRNA:CR32368 | DRSC25473 | 3.41 | 6.55 | 6425 | 6897 | inactive |
| CG14342 | DRSC00372 | 4.4 | 1.76 | 6910 | 6703 | inactive |
| CG14342 | DRSC25128 | 3.1 | 7.09 | 6586 | 6667 | inactive |

Copied from the listing, 6 entries:
| Target gene | DRSC id | infection score, replicate 1 | infection score, replicate 2 | cell count, replicate 1 | cell count, replicate 2 | activity call |
| --- | --- | --- | --- | --- | --- | --- |
| Pcl | DRSC24868 | 11.9 | 4 | 6072 | 6028 | inactive |
| beag | DRSC15296 | 9.16 | 12.5 | 5161 | 5748 | inactive |
| CG15771 | DRSC18077 | 1.03 | 0.25 | 6316 | 7097 | inactive |
| VhaAC39-2 | DRSC15609 | 8.6 | 6.37 | 6012 | 6902 | inactive |
| CG31952 | DRSC00428 | 6.13 | 11.6 | 6684 | 6693 | inactive |
| CG31952 | DRSC21997 | 3.13 | 1.54 | 6927 | 7034 | inactive |

Next entries follow.
| Target gene | DRSC id | infection score, replicate 1 | infection score, replicate 2 | cell count, replicate 1 | cell count, replicate 2 | activity call |
| --- | --- | --- | --- | --- | --- | --- |
| Hsp67Bc | DRSC11193 | 2.71 | 1.93 | 6318 | 5491 | inactive |
| Hsp67Bc | DRSC28175 | 27.9 | 24 | 6006 | 6829 | inactive |
| AnxB10 | DRSC20677 | 4.1 | 1.69 | 6560 | 6857 | inactive |
| AnxB10 | DRSC25182 | 3.24 | 4.23 | 6173 | 6472 | inactive |
| CG12689 | DRSC17879 | 17.9 | 7.28 | 4308 | 4822 | inactive |
| Rip11 | DRSC20000 | 3.88 | 3.22 | 6835 | 6671 | inactive |
| Rip11 | DRSC29902 | 2.51 | 3.9 | 6660 | 6259 | inactive |
| CG15753 (retired record) | DRSC22985 | 5.78 | 17.8 | 5142 | 4885 | inactive |
| CG8960 | DRSC08612 | 14.6 | 8.91 | 6483 | 5699 | inactive |
| CG8960 | DRSC27132 | 39.5 | 16.3 | 5184 | 6462 | inactive |
| sgll | DRSC15442 | 24.8 | 19.1 | 4228 | 3252 | inactive |
| CRAT | DRSC12523 | 8.46 | 9.66 | 6728 | 6736 | inactive |
| CRAT | DRSC29377 | 14 | 8.06 | 5438 | 1922 | inactive |
| Polr2G | DRSC16068 | 8.71 | 33.8 | 1298 | 4514 | inactive |
| Megf8 | DRSC03058 | 1.34 | 1.22 | 6414 | 6255 | inactive |
| Arp5 | DRSC16350 | 28.9 | 26.2 | 5490 | 6257 | inactive |
| Arp5 | DRSC28688 | 12.4 | 0.21 | 3389 | 466 | inactive |
| CG32100 | DRSC09725 | 3.99 | 5.04 | 6291 | 6513 | inactive |
| CG32100 | DRSC10331 | 1.74 | 2.84 | 6319 | 6549 | inactive |
| Keap1 | DRSC15528 | 13.3 | 38.4 | 2936 | 5379 | inactive |
| Keap1 | DRSC29209 | 9.26 | 12.5 | 2537 | 2395 | inactive |
